Experiments:
Rattus norvegicus [1] = experiment: Analgesic activity in rat assessed as reaction time required for tail flicking response at 1.2 ug/kg, intracerebrally after 4 hrs by tail-flicking reaction method
Mus musculus [2] = experiment: Analgesic activity in mouse assessed as reaction time required to elicit jumping or hind paw licking at 1 ug/kg, intracerebrally after 2.5 hrs by hot plate method
Mus musculus [3] = experiment: Analgesic activity in mouse assessed as reaction time required to elicit jumping or hind paw licking at 1.5 ug/kg, intracerebrally after 4 hrs by hot plate method
Mus musculus [4] = experiment: Analgesic activity in mouse assessed as reaction time required for tail flicking at 3.2 ug/kg, intracerebrally after 4 hrs by light radiation method
Mus musculus [5] = experiment: Analgesic activity in mouse assessed as reaction time required to elicit jumping or hind paw licking at 0.5 ug/kg, intracerebrally after 1.5 hrs by hot plate method
Mus musculus [6] = experiment: Analgesic activity in mouse assessed as reaction time required for tail flicking at 1.7 ug/kg, intracerebrally after 3.3 hrs by light radiation method
Mus musculus [7] = experiment: Analgesic activity in mouse assessed as reaction time required to elicit jumping or hind paw licking at 1.5 ug/kg, intracerebrally after 2.5 hrs by hot plate method
Mus musculus [8] = experiment: Analgesic activity in mouse assessed as reaction time required for tail flicking at 2.2 ug/kg, intracerebrally after 1 hr by light radiation method
Mus musculus [9] = experiment: Analgesic activity in mouse assessed as reaction time required for tail flicking at 1.7 ug/kg, intracerebrally after 1 hr by light radiation method
Mus musculus [10] = experiment: Analgesic activity in mouse assessed as reaction time required for tail flicking at 2.2 ug/kg, intracerebrally after 3.3 hrs by light radiation method
Mus musculus [11] = experiment: Analgesic activity in mouse assessed as reaction time required for tail flicking at 0.7 ug/kg, intracerebrally after 2.5 hrs by light radiation method
Mus musculus [12] = experiment: Analgesic activity in mouse assessed as reaction time required to elicit jumping or hind paw licking at 3 ug/kg, intracerebrally after 1.5 hrs by hot plate method
Rattus norvegicus [13] = experiment: Analgesic activity in rat assessed as reaction time required for tail flicking response at 1.2 ug/kg, intracerebrally after 1 hr by tail-flicking reaction method
Mus musculus [14] = experiment: Analgesic activity in mouse assessed as reaction time required for tail flicking at 1.2 ug/kg, intracerebrally after 4 hrs by light radiation method
Rattus norvegicus [15] = experiment: Analgesic activity in rat assessed as reaction time required for tail flicking response at 1.2 ug/kg, intracerebrally after 3 hrs by tail-flicking reaction method
Mus musculus [16] = experiment: Analgesic activity in mouse assessed as reaction time required for tail flicking at 1.2 ug/kg, intracerebrally after 3.3 hrs by light radiation method
Mus musculus [17] = experiment: Analgesic activity in mouse assessed as reaction time required for tail flicking at 2.7 ug/kg, intracerebrally after 2.5 hrs by light radiation method
Mus musculus [18] = experiment: Analgesic activity in mouse assessed as reaction time required for tail flicking at 0.7 ug/kg, intracerebrally after 4 hrs by light radiation method

CC[C@H](C)[C@@H]1NC(=O)[C@H](CCCNC(=N)N)NC(=O)[C@H](CO)NC(=O)[C@@H]2CSSC[C@@H]3NC(=O)[C@H](CO)NC(=O)CNC(=O)[C@H]([C@H](C)O)NC(=O)[C@H](CSSC[C@H](N)C(=O)N[C@@H](CCCCN)C(=O)N[C@@H](C)C(=O)N[C@@H](C)C(=O)NCC(=O)N[C@@H](CCCCN)C(=O)N4CCC[C@H]4C(=O)N2)NC(=O)[C@H](CSSC[C@@H](C(N)=O)NC(=O)[C@H](CCCCN)NC(=O)CNC(=O)[C@H](CO)NC(=O)[C@H](CCCNC(=N)N)NC3=O)NC(=O)[C@H](CC(N)=O)NC(=O)[C@H](Cc2ccc(O)cc2)NC(=O)[C@H](C)NC1=O
Activity (Rattus norvegicus [1]): 3.5 s | Activity (Mus musculus [2]): 15 s | Activity (Mus musculus [3]): 29.4 s | Activity (Mus musculus [4]): 11.6 s | Activity (Mus musculus [5]): 20 s | Activity (Mus musculus [6]): 11.5 s | Activity (Mus musculus [7]): 38.2 s | Activity (Mus musculus [8]): 14.2 s | Activity (Mus musculus [9]): 12.2 s | Activity (Mus musculus [10]): 9.6 s | Activity (Mus musculus [11]): 10 s | Activity (Mus musculus [12]): 59.8 s | Activity (Rattus norvegicus [13]): 3.3 s | Activity (Mus musculus [14]): 7.66 s | Activity (Rattus norvegicus [15]): 3.5 s | Activity (Mus musculus [16]): 10.5 s | Activity (Mus musculus [17]): 11.9 s | Activity (Mus musculus [18]): 8.1 s

— ChEMBL document CHEMBL1150695, “The synthesis of SO-3, a conopeptide with high analgesic activity derived from Conus striatus” (2003)
